Measured values taken from paper PMC5268466, “Monofluorophosphate Blocks Internal Polysaccharide Synthesis in Streptococcus mutans” (PLoS ONE, 2017).
pIC50, pKi: −log10 of the molar value.

Protein sequences, listed by entry. Tags and fused reporters are not part of them. Lines headed by an entry give the natural chain unless they say otherwise; changes in a name come on top.
UniProt M9TIK1: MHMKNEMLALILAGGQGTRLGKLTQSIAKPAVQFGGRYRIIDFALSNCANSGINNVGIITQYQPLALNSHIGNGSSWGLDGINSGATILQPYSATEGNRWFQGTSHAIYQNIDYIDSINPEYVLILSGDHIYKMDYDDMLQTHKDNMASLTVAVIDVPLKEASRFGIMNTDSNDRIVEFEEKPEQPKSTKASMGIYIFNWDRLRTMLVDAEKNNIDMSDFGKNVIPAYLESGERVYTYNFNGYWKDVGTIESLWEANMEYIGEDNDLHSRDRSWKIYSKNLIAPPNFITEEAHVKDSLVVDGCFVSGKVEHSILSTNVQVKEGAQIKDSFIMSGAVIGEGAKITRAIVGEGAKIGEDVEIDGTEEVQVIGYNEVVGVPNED

How the values were obtained:
[1] = molecular target: T1, S. mutans ADP-Glc PPase (GlgC/GlgD) (Streptococcus mutans, UniProt M9TIK1); assay: ADP-[…]Glc synthesis assay, Hill fit; conditions: read-out: I0.5; saturating substrates; Figure 3: 1 mM Glc-1P, 2 mM ATP, 10 mM Mg2+; pH 8.0 MOPS, 37 C; activation at low concentrations before inhibition; not reverted by Fru-1,6-bisP
[2] = molecular target: T1, S. mutans ADP-Glc PPase (GlgC/GlgD); assay: ADP-[…]Glc synthesis assay, Dixon plot; conditions: read-out: apparent KI; non-competitive or slightly mixed versus ATP (1, 3, 5 and 10 mM); 10 mM Mg2+; pH 8.0, 37 C

`O=P(O)(O)F` gave a pIC50 [1] of 2.82 and a pKi [2] of 2.15 to 2.30.
